Measurements taken from US20250325569A1, “COMPOSITIONS AND METHODS OF MAKING AND USE THEREOF” (Ohio State Innovation Foundation, priority 2022, published 2025).

System: Salmonella enterica ser. Livingstone 1236H
Assay: Microbroth dilution MIC
Format: cell-based
Procedure: Antimicrobial Assays. […] Susceptibility testing was performed using the microbroth dilution method in 96 round-well microtiter plates as previously described [A20]. Compounds were prepared as 50× of stocks (10 Mm) by dissolving in Di H2O. All bacterial strains were grown and assayed M9 glucose media (with amendments added as required), and yeast strains in YMM. Controls wells contained 200 µM kanamycin (for bacteria) or nystatin (for yeasts), no compound addition (vehicle only), and no cell addition (added media instead). Culture densities (OD600) were recorded using a Bio-Rad xMark microplate spectrophotometer after 16 hours for all strains except bacilli, which were recorded after 24 hours. […] MICs values are from triplicate assays performed on separate days. Disk diffusion assays were used to assess antimicrobial activity of the purified compounds against filamentous fungi and against Mycobacterium smegmatis [A20].

Question: How did the MIC turn out when CC(N)C(=O)NC(C)C(=O)NC(CP(=O)(O)O)C(=O)O (stereo not shown) [Compound 3] was run?
Answer: > 200 µM
